CC10 data for 1 compound are collected here from article PMC10081574, “Evaluation of Antiviral Activity of Gemcitabine Derivatives against Influenza Virus and Severe Acute Respiratory Syndrome Coronavirus 2” (ACS Infectious Diseases, 2023).

The test system of this series is MDCK cells. The conditions noted are these: dog.

For the compound `NC(=O)c1ncn([C@@H]2O[C@H](CO)[C@@H](O)[C@H]2O)n1` [Ribavirin, reference compound], the CC10 was greater than 300.0 µM.
